Values from PubChem BioAssay AID1259414 (Drosophila RNAi Screening Center, 2018).
The screen tested about 24,000 reagents; this is a random part of those that have a named target and a result. Over the whole deposit, about 1,210 (5%) are marked active. 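Inactive calls also include excluded dsRNAs with several or no targets, genes unexpressed in JW18, and well A1, regardless of score.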 A number with no mark means an inactive call. Reagents against one gene are numbered here. Names joined by + are all predicted targets of the reagent. No sequences are given here.

- Purpose: 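Fly genes that alter Wolbachia amount inside host cells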 (primary screen)
- Cells: Drosophila JW18 cells infected with Wolbachia
- Knock-down reagent: long dsRNA against Drosophila genes, 0.25 µg dsRNA per well of a 384-well plate
- Time to read-out: 5 days
- Conditions: cells persistently infected with Wolbachia before knock-down; no added drug
- Measured: 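Automated imaging of bacterial rRNA staining divided by host cell count, reported as plate-normalised robust z-score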
- Reading the numbers: Wolbachia per cell robust z: higher = more Wolbachia per host cell than the plate typical
- Hit rule: 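Active if absolute robust z reaches 1.5 in two or more of three replicates, leaving out multi- or no-target dsRNAs, genes unexpressed in JW18 and A1 wells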

target gene | reagent | Wolbachia per cell robust z, rep 1 | Wolbachia per cell robust z, rep 2 | Wolbachia per cell robust z, rep 3
Obp51a | 1 | 0.199 | 0.733 | 0.383
CG1738 | 1 | 1.2 | -0.358 | 0.45
CG1738 | 2 | -2.57 | 0.807 | -0.108
CG10598 | 1 | -0.19 | 0.25 | -1.56
CG10598 | 2 | -1.36 | 0.0636 | -0.119
mnd | 1 | -0.925 | 0.101 | 0.048
CG5707 | 1 | -0.0744 | 0.665 | -9.09
CG5707 | 2 | 1.22 | -0.197 | 0.558
Cyp4d8 | 1 | -0.208 | 0.18 | 0.726
Cyp4d8 | 2 | -0.373 | -1.39 | -7.21
CG12035 | 1 | 0.124 | 1.01 | 0.108
BCL7-like | 1 | -2.76 | 0.447 | 0.0817
BCL7-like | 2 | -0.541 | -1.49 | 0.586
Ada | 1 | 0.832 | 1.1 | 1.16
CR44003 + CG44002 | 1 | -1.94 (active) | -8.91 | -1.22
CR44003 + CG44002 | 2 | 0.054 | 0.518 | -1.64
CR44003 + CG44002 | 3 | -0.84 | -1.11 | 0.32
CG1532 | 1 | 0.583 | 0.766 | -0.0843
CG8607 | 1 | -0.442 | 0.242 | 0.169
List | 1 | -1.84 | 0.287 | -2.15
CG9021 | 1 | 0.194 | -0.0259 | -0.371
Klp59C | 1 | -0.601 | -4.47 | -3.28
Klp59C | 2 | -0.602 | 0.478 | 0.81
bark | 1 | -0.645 | -5.86 | 2.11
bark | 2 | -0.777 | -0.0741 | -2.45
CG31230 | 1 | 0.545 | -0.715 | 0.681
CG31230 | 2 | -0.154 | -1.41 | -1.42
GstT4 | 1 | -0.961 | 0.321 | -1.1
CG9522 | 1 | 0.396 | -0.667 | -0.0657
CG9522 | 2 | -1.69 | 0.604 | 0.266
CR33255 + hpRNA:CR32207 + CR42842 + 1 more | 1 | -0.919 | -1.17 | 0.651
CG15153 | 1 | -0.597 | -1.74 | -1.31
CG15153 | 2 | 1.1 | 0.0871 | -1
CG17264 | 1 | -1.28 | -2.98 | -0.669
CG17264 | 2 | -0.407 | -0.0751 | -1.43
CG12115 | 1 | -0.58 | 0.458 | -0.574
srp | 1 | -0.626 | -0.765 | -0.19
srp | 2 | -0.255 | -1.23 | -4.93
eEF1delta | 1 | -8.6 (active) | 0.502 | -3.31
eEF1delta | 2 | 0.326 | -0.571 | 0.413
CG31787 | 1 | 1.52 | 1.14 | -1.28
sip3 | 1 | 1.74 (active) | 1.77 | 1.08
sip3 | 2 | 0.993 | 1.42 | 1.71
spartin | 1 | 0.612 | 0.845 | -0.629
spartin | 2 | -2.7 | -0.276 | -0.578
Ork1 | 1 | -3.19 | 0.0385 | -8.1
tmod | 1 | -1.61 | 0.146 | 0.0209
tmod | 2 | 0.256 | 0.000281 | -3.68
tmod | 3 | -0.235 | -0.607 | -0.446
tmod | 4 | 0.57 | 0.824 | -0.023
kmr | 1 | -0.849 | -1.07 | 0.169
kmr | 2 | 0.416 | -0.083 | 0.447
kmr | 3 | -11.2 | 0.34 | -0.00997
kmr | 4 | -0.556 | 0.605 | -0.124
kmr | 5 | -1.56 (active) | -2.32 | -1.41
CG31808 | 1 | 1.18 | 0.604 | 1.42
CG31808 | 2 | 0.209 | 0.674 | 1.18
spz3 | 1 | -3.55 | 0.378 | 1.12
spz3 | 2 | -1.85 | 0.658 | -0.868
CG13427 | 1 | 0.392 | 0.648 | 1.07
CG14294 | 1 | 0.693 | 0.0983 | -0.564
Mur29B | 1 | 0.377 | 0.469 | 0.428
Mur29B | 2 | -0.742 | -1.86 | -1.61
CG43131 | 1 | 0.208 | -1.67 | -0.969
Ku80 | 1 | -0.619 | 0.932 | 0.577
Ku80 | 2 | 0.47 | -0.805 | -0.677
CG12935 | 1 | 1.01 | 0.162 | -0.506
Npc2d | 1 | 0.671 | -0.148 | -2.11
Npc2d | 2 | -0.85 | 0.753 | -0.227
Npc2a | 1 | -0.321 | -0.543 | 0.743
His3:CG33863 + His3:CG33806 + His3:CG33857 + 21 more | 1 | 2.74 | 5.2 | 7.72
MsR2 | 1 | 0.101 | -0.0611 | -0.0635
MsR2 | 2 | 0.547 | 0.317 | -0.0267
MsR2 | 3 | 0.652 | 0.431 | -0.125
MsR2 | 4 | -2.11 | -0.0482 | -2.17
mira | 1 | 1.27 | -0.233 | -0.214
mira | 2 | 0.0703 | -0.164 | -0.34
Ocho | 1 | 0.47 | 0.75 | 0.568
Ocho | 2 | 0.204 | -0.237 | -0.307
CG32833 | 1 | -0.8 | 0.72 | -0.229
Tdc2 | 1 | -0.933 | -9.08 | 0.582
Tdc2 | 2 | -0.462 | 0.232 | -0.0737
dsd | 1 | -0.863 | -0.276 | 0.133
dsd | 2 | -0.426 | -0.55 | 0.335
Dus4 | 1 | -0.512 | -0.756 | -0.605
Alg-2 | 1 | -3.85 | 0.366 | -1.45
Alg-2 | 2 | -0.427 | -0.55 | -1.96

6 entries already listed, sorted by “Wolbachia per cell robust z, rep 2”, lowest first.
target gene | reagent | Wolbachia per cell robust z, rep 1 | Wolbachia per cell robust z, rep 2 | Wolbachia per cell robust z, rep 3
mira | 1 | 1.27 | -0.233 | -0.214
mira | 2 | 0.0703 | -0.164 | -0.34
MsR2 | 4 | -2.11 | -0.0482 | -2.17
MsR2 | 2 | 0.547 | 0.317 | -0.0267
MsR2 | 3 | 0.652 | 0.431 | -0.125
Ocho | 1 | 0.47 | 0.75 | 0.568
